Measured values from several laboratories, pooled; numbers as filed in NIAID ChemDB.

Common to all: toxicity to cultured cells; cells: HFF; measure: CC50

Blank or dashed fields: not listed here.

SMILES,method,value
[N-]=[N+]=N[C@H]1[C@H](O)[C@@H](CO)O[C@H]1n1cc(C(N)=O)c2c(N)ncnc21,-,66 µM
CCOC(=O)C1C(c2ccc(F)cc2)CC(c2ccccc2)=CC12NCCN2,-,0.1279 µM
O=Nc1c(-c2c(O)[nH]c3ccc(S(=O)(=O)O)cc23)[nH]c2ccccc12,-,>320 µg/mL
OC[C@H]1O[C@@H](n2c(Cl)nc3cc4cc(Cl)c(Cl)cc4cc32)[C@H](O)[C@@H]1O,-,3.2 µM
Nc1ncnc2c1ncn2[C@@H]1C[C@@H](O)[C@H](CO)O1,-,>100 µM
CCOC(=O)C1C(c2ccccc2)CC(c2ccc(Cl)cc2)=CC12NCCN2,-,0.1279 µM
[CH3][Sn]([CH3])([Br])[Br].c1ccc(-c2nc3ccccc3[nH]2)nc1,-,83 µg/mL
COC(=O)[C@H](C)NP(=O)(OC[C@@H]1C[C@]12C[C@@H]2n1cnc2c(N)ncnc21)Oc1ccccc1,-,100 µM
O=C1C(c2c(O)[nH]c3ccc(Cl)cc23)=Nc2ccccc21,-,>320 µg/mL
Nc1ncnc2c1c(Br)cn2[C@@H]1O[C@H](CO)[C@@H](O)[C@H]1O,visual reading,1.2 µM
OC[C@H]1O[C@@H](n2c(Cl)nc3cc(Cl)c(Cl)cc32)[C@H](O)[C@@H]1O,-,238 µM
COc1ccc2c(c1)c1c3c(c4c5ccccc5n(C)c4c1n2CC(O)CN(C)C)C(=O)NC3=O,-,>0.1 µM
N#Cc1cn([C@H]2C[C@H](O)[C@@H](CO)O2)c2ncnc(N)c12,-,66 µM
Cc1[nH]c2ccccc2c(=O)c1-c1ccc(Oc2ccc(OC(F)(F)F)cc2)cc1,absorbance,9.349 µM
O=C1C(c2c(O)[nH]c3ccc(F)cc23)=Nc2ccccc21,-,>320 µg/mL
CC(C)=CCC[C@@H](C)CCCC[C@H]1O[C@@H]2OC3(C)CC[C@H]4[C@H](C)CC[C@@H]([C@H]1C)[C@@]24OO3,-,510 µg/mL
N=c1ccc(=Nc2ccc(N)c3c(O)c4ccccc4c(O)c23)c2c(=O)c3ccccc3c(=O)c1=2,-,>1500 µM
CCCCCCCCCCCCCCCO[P@]1(=O)OC[C@@H]2COC(=O)C2=C(CCCC)O1,resazurin,>50 µM
[Cl][Sn]([Cl])([c]1ccccc1)[c]1ccccc1,-,1.1 µg/mL
O=C1c2cc(I)ccc2-n2c1nc1ccccc1c2=O,-,>320 µg/mL
[Cl][Sn]([Cl])([Cl])[c]1ccccc1,-,1.6 µg/mL
CN[C@H]1C[C@@H]2O[C@](C)([C@H]1OC)n1c3ccccc3c3c4c(c5c6ccccc6n2c5c31)C(=O)NC4,-,0.0098 µM
CC1=C(C(=O)NCc2ccc(C(F)(F)F)cc2)OC2OC3(C)CC[C@H]4[C@H](C)CC[C@@H]1[C@@]24OO3,-,169 µM
CC[C@@]1(C)NC(=O)[C@H](CCCCCC(=O)[C@H](C)OC(C)=O)NC(=O)[C@H]2C[C@H](C)CN2C(=O)C(Cc2ccccc2)NC1=O,-,0.6321 µM
Nc1ccn([C@@H]2C[C@@H](O)[C@H](CO)O2)c(=O)n1,-,>100 µM
Nc1nc(NC2CC2)c2ncn(/C=C3/C[C@@H]3CO)c2n1,neutral red,213 µM
N#Cc1cn([C@@H]2O[C@H](CO)[C@@H](O)[C@@H]2Cl)c2ncnc(N)c12,-,140 µM
C[CH2][Sn]([Br])([Br])[CH2]C.c1ccc(-c2nc3ccccc3[nH]2)nc1,-,14 µg/mL
COC(=O)[C@H](C)NP(=O)(OC[C@@H]1C[C@]12C[C@@H]2n1cnc2c(N)ncnc21)Oc1ccccc1,-,95 µM
COc1nc(N)nc2c1ncn2/C=C1/C[C@H]1CO,neutral red,158 µM
OC[C@H]1O[C@@H](n2cnc(Cl)c2Cl)[C@H](O)[C@@H]1O,-,>100 µM
Cc1cc(Nc2ccc(O)c3c2C(=O)c2ccccc2C3=O)cc(S(=O)(=O)O)c1,-,930 µM
NC(=S)c1cn([C@@H]2O[C@H](CO)[C@@H](O)[C@@H]2O)c2ncnc(N)c12,-,29 µM
Nc1nc(Cl)nc2c1ncn2/C=C1\CC1CO,-,>300 µM
CCOC(=O)C1C(c2ccc(C)cc2)CC(c2ccccc2)=CC12NCCN2,-,0.1279 µM
CCCCCCC[CH2][Sn]([Cl])([Cl])[CH2]CCCCCCC,-,33 µg/mL
OCC1OC(n2c(SCc3ccccc3)nc3nc4cc(Cl)c(Cl)cc4nc32)C(O)C1O,-,20 µM
NC(=O)c1cn([C@@H]2O[C@H](CO)[C@@H](O)[C@H]2O)c2ncnc(N)c12,-,0.07 µM
Nc1nc2c(ncn2[C@H]2C[C@@]23C[C@@H]3CO)c(=O)[nH]1,-,>100 µM
COC(=O)[C@H](C)NP(=O)(OC[C@H]1C/C1=C\n1cnc2c(N)nc(N)nc21)Oc1ccccc1,-,>211 µM
CCOC(=O)C1C(c2ccc(OC)cc2)CC(c2ccc(Cl)cc2)=CC12NCCN2,-,0.1279 µM
Cc1cc2c(s1)Nc1ccccc1N=C2N1CCN(C)CC1,-,100 µg/mL
NC(=O)c1cn([C@@H]2O[C@H](CO)[C@@H](O)[C@@H]2O)c2ncnc(N)c12,-,10 µM
NC(=S)c1cn([C@@H]2O[C@H](CO)C[C@H]2O)c2ncnc(N)c12,-,2.1 µM
Nc1c(S(=O)(=O)O)cc(Nc2ccc(S(=O)(=O)O)c(Nc3nc(Cl)nc(Cl)n3)c2)c2c1C(=O)c1ccccc1C2=O,-,280 µM
Nc1nc(NC2CC2)c2ncn(C=C3CC3CO)c2n1,-,327 µM
OC[C@H]1O[C@@H](n2c(Br)nc3cc(Cl)c(Cl)cc32)[C@H](O)[C@@H]1O,-,118 µM
Nc1nc2c(ncn2[C@H]2C[C@]23C[C@@H]3CO)c(=O)[nH]1,-,>100 µM
CC[C@@]1(C)NC(=O)[C@H](CCCCCC(=O)[C@H](C)OC(=S)Oc2ccccc2)NC(=O)[C@H]2C[C@H](C)CN2C(=O)C(Cc2ccccc2)NC1=O,-,0.539 µM
N#Cc1c(Br)n([C@@H]2O[C@H](CO)[C@@H](O)[C@H]2O)c2ncnc(N)c12,visual reading,2.5 µM
NC(=S)c1cn([C@@H]2O[C@H](CO)[C@@H](O)[C@@H]2N)c2ncnc(N)c12,-,73 µM
COc1nc(N)nc2c1ncn2C=C1CC1CO,-,>404 µM
OC[C@H]1O[C@@H](n2c(Cl)nc3nc4cc(Cl)c(Cl)cc4cc32)[C@H](O)[C@@H]1O,-,21 µM
Nc1nc(NC2CC2)c2ncn(/C=C3/C[C@H]3CO)c2n1,neutral red,190 µM
N#Cc1c(Br)n(COCCO)c2ncnc(N)c12,visual reading,100 µM
Nc1nc2c(ncn2[C@H]2C[C@@]23C[C@H]3CO)c(=O)[nH]1,-,>100 µM
Oc1cccc2c1[nH]c1c(C3=C[C@]4(O)C/C=C/CCCCCN5CC[C@@H]3[C@]3(C[C@@H]6/C=C\CCCCN6C34)C5)nccc12,-,>1 µM
Cc1ccc2c(c1)C(=O)c1nc3ccccc3c(=O)n1-2,-,>320 µg/mL
OC[C@H]1O[C@@H](n2c(Br)nc(Br)c2Br)[C@H](O)[C@@H]1O,-,100 µM
C[C@@H]1CC[C@H]2[C@@H](C)C(=O)O[C@@H]3OC4(C)CC[C@@H]1[C@]32OO4,-,>320 µg/mL
Nc1ccn([C@@H]2C[C@@H](O)[C@H](CO)O2)c(=O)n1,-,>100 µM
CCC(=O)CCCCC[C@@H]1NC(=O)[C@H]2C[C@H](C)CN2C(=O)C(Cc2ccccc2)NC(=O)[C@@](C)(CC)NC1=O,-,>2000 µM
CC1=C(C(=O)NCc2cc(F)cc(F)c2)OC2OC3(C)CC[C@H]4[C@H](C)CC[C@@H]1[C@@]24OO3,-,78 µM
CCCC(CCC)C(=O)O,-,62.4 µg/mL
OC[C@H]1O[C@@H](n2c(Cl)nc3cc(Cl)c(Cl)cc32)[C@H](O)[C@@H]1O,-,238 µM
NC(=S)c1c(N)n(COCCO)c2ncnc(N)c12,visual reading,>100 µM
C=C1CCCC2[C@@H](CCC3(C)CCC([C@@H](C)C(=O)O)OO3)[C@H](C)CC[C@@]12C,-,<0.392 µM
N#Cc1cn([C@@H]2O[C@H](CO)[C@@H](O)[C@@H]2I)c2ncnc(N)c12,-,100 µM
Nc1ncnc2c1c(Br)cn2COCCO,visual reading,100 µM
OCCOCCN1CCN(C2=Nc3ccccc3Sc3ccccc32)CC1,-,33 µg/mL
O=C1CCCN2C(CC1)C[C@@]13CN4CCCC/C=C/CC[C@@](O)(C=C(c5nccc6c5[nH]c5c(O)cccc56)[C@H]1CC4)[C@@H]23,-,>10 µM
CC[C@H]1OC(=O)[C@H](C)C(=O)[C@H](C)[C@@H](O[C@@H]2O[C@H](C)C[C@H](N(C)C)[C@H]2O)[C@](C)(OC)C[C@@H](C)C(=O)[C@H](C)[C@H]2N(NCCCc3ccnc4ccccc34)C(=O)O[C@]12C,-,>5 µg/mL
NC(=S)c1cn([C@H]2CC[C@@H](CO)O2)c2ncnc(N)c12,-,29 µM
Cc1ccc(Cn2c(N)c(C#N)c3c(N)ncnc32)cc1,visual reading,32 µM
N#Cc1c(N)n(COCCO)c2ncnc(N)c12,visual reading,>100 µM
Nc1nc(F)nc2c1ncn2/C=C1\CC1CO,-,>300 µM
CO[C@H]1O[C@@H]2O[C@@]3(C)CC[C@H]4[C@H](C)CC[C@@H]([C@H]1C)[C@@]24OO3,-,220 µg/mL
Nc1nc(Cl)c2ncn(/C=C3/C[C@H]3CO)c2n1,neutral red,93 µM
NC(=O)c1c(Br)n(COC(CO)CO)c2ncnc(N)c12,visual reading,100 µM
N#Cc1cn([C@H]2C=C[C@@H](CO)O2)c2ncnc(N)c12,-,>100 µM
Nc1nc(NC2CC2)c2ncn(C=C3CC3CO)c2n1,neutral red,222 µM
C=C1[C@H](CO)[C@@H](O)C[C@@H]1n1cnc2c(=O)[nH]c(N)nc21,-,>90 µM
Nc1nc(N)c2ncn(/C=C3/C[C@H]3CO)c2n1,neutral red,141 µM
Cc1ccc2[nH]c(O)c(C3=Nc4ccccc4C3=O)c2c1,-,>320 µg/mL
[Br][Sn]([Br])([c]1ccccc1)[c]1ccccc1,-,1.2 µg/mL
O=C1c2cc(Br)ccc2-n2c1nc1ccccc1c2=O,-,>320 µg/mL
Nc1ncnc2c1ncn2/C=C1/C[C@H]1CO,neutral red,353 µM
OC[C@H]1O[C@@H](n2c(Cl)nc3cc4cc(Cl)c(Cl)cc4nc32)[C@H](O)[C@@H]1O,-,18 µM
Nc1nc2c(ncn2/C=C2/C[C@H]2CO)c(=O)[nH]1,neutral red,>429 µM
OC[C@H]1O[C@@H](n2c(Cl)nc3cc(Cl)ccc32)[C@H](O)[C@@H]1O,visual reading,>100 µM
N#Cc1c(N)n(Cc2ccc(Br)cc2)c2ncnc(N)c12,visual reading,>10 µM
OCCN1CCN(CCCN2c3ccccc3Sc3ccc(C(F)(F)F)cc32)CC1,-,17.9 µg/mL
N#Cc1cn([C@@H]2O[C@H](CO)[C@@H](O)[C@@H]2O)c2ncnc(N)c12,-,0.3 µM

Neighbouring rows are from separate reports. CCn: concentration that lowers growth or viability of the cells by n%.